These are literature values, as cited in paper PMC2642980 (Bioorganic & medicinal chemistry letters, 2008).

One data set has as its system vaccinia virus. As to conditions: plaque reduction assays; cited from earlier work. For orientation: Plaque reduction counts the foci of infection that form in a cell layer.
The next data set has as its system cowpox virus. As to conditions: cited from earlier work.

Consider “1-Beta-D-arabinofuranosyladenine [Vidarabine]”, for which the “Fold more active than cidofovir against vaccinia virus” value with vaccinia virus is recorded as 3- to 5 fold. The “Fold more active than cidofovir against cowpox virus” value with cowpox virus is recorded as 3- to 5 fold.
